Sequences of proteins named here, by UniProt entry; tags and fusion partners are left off. A line that says so, or that is headed by a name, gives the form on record, which may keep a tag or linker.
UniProt P9WHJ3, with tags, fused parts or gaps limits assumed: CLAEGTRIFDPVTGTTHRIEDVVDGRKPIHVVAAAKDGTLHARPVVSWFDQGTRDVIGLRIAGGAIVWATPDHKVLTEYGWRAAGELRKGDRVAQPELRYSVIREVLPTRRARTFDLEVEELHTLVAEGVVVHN

According to patent US7553832B2, “Methods and compositions for specific inhibition of protein splicing by small molecules” (Boston Biomedical Research Institute, priority 2005, dated 2009):

Legend:
[1] = biological target: M. tuberculosis RecA intein (Mycobacterium tuberculosis, UniProt P9WHJ3); test: GFP-RecA intein fusion fluorometric protein splicing assay (Assay #1, Intein & GFP); type: biochemical; details: read-out: RecA intein IC50; fluorescent GFP-linked protein splicing, 5 to 40 μM tested
BCG = BCG MIC; type: cell-based
Mtu H37Rv = Mtu H37Rv MIC; type: cell-based, M. tuberculosis

Structure (SMILES) | IC50 [1] | BCG MIC (BCG) | Mtu H37Rv MIC (Mtu H37Rv)
Cc1cc(Sc2c([N+](=O)[O-])cc(C(F)(F)F)cc2[N+](=O)[O-])c(Cl)cc1Cl | < 5 µM |  | 
N=C(N)c1ccc(NC(=O)Nc2cccc(C(=N)N)c2)cc1 | 8 µM |  | 
O=C(c1c[nH]c(C(=O)C(Cl)(Cl)Cl)c1)c1c(Cl)cccc1Cl | < 5 µM |  | 
Cc1nn2c(c1[N+](=O)[O-])n1nc(C)c([N+](=O)[O-])c1n1nc(C)c([N+](=O)[O-])c21 | 6 µM | 5 µg/mL | 10 µg/mL
